Anti-infective test results gathered from many reports (values: NIAID ChemDB through PubChem).

Shared fields: growth or infection tests; species: HIV-1; measure: EC50

ECn is the concentration giving n% inhibition of infection, replication or growth. Rows are shuffled and stem from different studies. An empty or dashed field is not shown.

| compound | changes | strain | cell line | value |
|---|---|---|---|---|
| O=C(O)C(=O)/C=C(\O)c1cc(Cc2ccc(F)c(Cl)c2)cn(Cc2ccc(F)c(Cl)c2)c1=O |  |  | MAGI | 2.4 µM |
| CC[C@H](C)[C@H]([NH3+])C(=O)NNc1ccn([C@H]2CC[C@@H](CO)O2)c(=O)n1 |  |  | CEM + CEM-SS | >100 µM |
| O=C(O)C(=O)/C=C(\O)c1cc(Cc2ccccc2)cn(Cc2ccc(F)cc2)c1=O |  |  | MAGI | 1 µM |
| COCc1nc(Nc2ccc(C#N)cc2)nc(Nc2c(C)cc(/C=C/C#N)cc2C)c1C(=O)N1CCN(C)CC1 |  | K103N+Y101C | MT4 CMV-EGFP | 2.82 µM |
| O=C1Nc2ccc(F)cc2C(C#Cc2ccoc2)(C(F)(F)F)O1 |  |  |  | <0.00252 µM |
| Cc1cn([C@@H]2O[C@@H]3CN[C@@]4(C(N)=O)CS(=O)(=O)O[C@@]34[C@H]2O)c(=O)[nH]c1=O |  | IIIB | CEM | >250 µM |
| CC#CCOC1(C(F)(F)F)OC(=O)Nc2ccc(Cl)cc21 |  |  |  | <0.00313 µM |
| Cc1cc(C#N)cc(C)c1Oc1nc(Nc2ccc(C#N)cc2)nc(N)c1Br | NL/103 |  | TZM-bl | 0.0084 µM |
| CCC(O)c1cnc(Nc2ccc(C#N)cc2)nc1Nc1c(C)cc(/C=C/C#N)cc1C |  | L100I + K103N | MT-4 | 0.0309 µM |
| COCCNC(=O)c1c(COC)nc(Nc2ccc(C#N)cc2)nc1Nc1c(C)cc(/C=C(\C)C#N)cc1C |  | L1001+K103N | MT4 CMV-EGFP | 0.0158 µM |
| CCO[C@]12CS(=O)(=O)O[C@@]13[C@@H](CN2)O[C@@H](n1cc(C)c(=O)[nH]c1=O)[C@@H]3O[Si](C)(C)CCC(C)(C)C |  | IIIB | CEM | >10 µM |
| C=CCNC(=O)c1c(COC)nc(Nc2ccc(C#N)cc2)nc1Nc1c(C)cc(/C=C/C#N)cc1C |  | K103N+Y101C | MT4 CMV-EGFP | 0.0224 µM |
| CNC(O)c1cnc(Nc2ccc(C#N)cc2)nc1Nc1c(C)cc(/C=C/C#N)cc1C |  | PSI (IIIB) | MT-4 | 427 µM |
| O=C1Nc2ccc(F)c(F)c2C(C#Cc2ccccn2)(C(F)(F)F)O1 |  |  |  | <0.00678 µM |
| Cc1ccc(Cn2cc(Cc3cccc(Cl)c3)cc(/C(O)=C/C(=O)C(=O)O)c2=O)cc1 |  |  | MAGI | 2.5 µM |
| Cc1cc(/C=C/C#N)cc(C)c1Nc1nc(Nc2ccc(C#N)cc2)ncc1C(O)c1cccnc1 |  | PSI (IIIB) | MT-4 | 135 µM |
| COCCNC(=O)c1c(COC)nc(Nc2ccc(C#N)cc2)nc1Oc1c(C)cc(/C=C/C#N)cc1C |  | MDR | MT4 CMV-EGFP | 0.661 µM |
| O=C(O)C(=O)/C=C(\O)c1cc(Cc2cccc(Cl)c2)cn(Cc2ccc(F)c(Cl)c2)c1=O |  |  | MAGI | 1.2 µM |
| C=CCOC1(C(F)(F)F)OC(=O)Nc2ccc(Cl)cc21 |  |  |  | <0.0039 µM |
| O=C1Nc2ccc(Cl)cc2[C@@](C#CC2CC2)(C(F)(F)F)O1 | V106A/F227C |  | MT-4 | 0.079 µM |
| Cc1cc(F)ccc1Cc1cc(/C(O)=C/C(=O)C(=O)O)c(=O)n(Cc2ccc(F)cc2)c1 |  |  | MAGI | 1 µM |
| CCOC1(C(F)(F)F)OC(=O)Nc2ccc(Cl)cc21 |  |  |  | <0.01826 µM |
| COCc1nc(Nc2ccc(C#N)cc2)nc(Nc2c(C)cc(/C=C/C#N)cc2C)c1C(=O)NCC(OC)OC |  | MDR | MT4 CMV-EGFP | 0.107 µM |
| C#CCO[C@]12CS(=O)(=O)O[C@@]13[C@@H](CN2)O[C@@H](n1cc(C)c(=O)[nH]c1=O)[C@@H]3O[Si](C)(C)C(C)(C)C |  | IIIB | CEM | >25 µM |
| O=C(O)C(=O)/C=C(\O)c1cc(Cc2cccc(Cl)c2F)cn(Cc2cccc(Cl)c2F)c1=O |  |  | MAGI | 2.4 µM |
| O=C1Nc2ccc(F)cc2C(C#Cc2cccnc2)(C(F)(F)F)O1 |  |  |  | <0.00256 µM |
| Cc1cc(/C=C/C#N)cc(C)c1Nc1nc(Nc2ccc(C#N)cc2)ncc1C(O)n1ccnc1 |  | IIIB | MT-4 | 0.00372 µM |
| COC[C@@H](c1ccc(C(F)(F)F)cc1)N1CCN(C2(C)CCN(C(=O)c3c(C)ncnc3C)CC2)C[C@@H]1C |  | S | PBMC | 0.00073 µM |
| Cc1cn([C@@H]2O[C@@H]3CN[C@H]4CS(=O)(=O)O[C@]43[C@H]2O[Si](C)(C)C(C)(C)C)c(=O)[nH]c1=O |  | IIIB | CEM | 30 µM |
| C/C=C/COC1(C(F)(F)F)OC(=O)Nc2ccc(F)cc21 | RT-K103N |  |  | <1.148 µM |
| Cc1cc(/C=C/C#N)cc(C)c1Nc1nc(Nc2ccc(C#N)cc2)ncc1C(O)OCc1cccnc1 |  | IIIB | MT-4 | 0.01096 µM |
| COCc1nc(Nc2ccc(C#N)cc2)nc(Nc2c(C)cc(/C=C/C#N)cc2C)c1C(=O)N1CCC(O)CC1 |  | IIIB | MT4 CMV-EGFP | 0.00617 µM |
| Cc1cc(/C=C/C#N)cc(C)c1Nc1nc(Nc2ccc(C#N)cc2)ncc1C(O)c1csc2nc(Cl)cn12 |  | PSI (IIIB) | MT-4 | 724 µM |
| O=C1Nc2ccc(Cl)cc2C(OCCc2ccccc2)(C(F)(F)F)O1 |  |  |  | <0.1668 µM |
| COCc1nc(Nc2ccc(C#N)cc2)nc(Nc2c(C)cc(/C=C(\C)C#N)cc2C)c1C(=O)NCc1ccncc1 |  | L1001+K103N | MT4 CMV-EGFP | 0.229 µM |
| O=C(NNc1ccn([C@H]2CC[C@@H](CO)O2)c(=O)n1)c1ccccc1O |  |  | CEM + CEM-SS | >100 µM |
| O=C(O)C(=O)/C=C(\O)c1cc(Cc2ccc(F)c(Cl)c2)cn(Cc2ccc(F)cc2F)c1=O |  |  | MAGI | 1.4 µM |
| COP(=O)(c1cc(C)cc(CCC#N)c1)c1c(C(N)=O)[nH]c2ccc(Cl)cc12 | K103N/Y181C | Clinical isolate | MT-2 | 0.0057 µM |

Again, the opening 5 rows:

{"compound": "O=C(O)C(=O)/C=C(\\O)c1cc(Cc2ccc(F)c(Cl)c2)cn(Cc2ccc(F)c(Cl)c2)c1=O", "cell line": "MAGI", "value": "2.4 µM"}
{"compound": "CC[C@H](C)[C@H]([NH3+])C(=O)NNc1ccn([C@H]2CC[C@@H](CO)O2)c(=O)n1", "cell line": "CEM + CEM-SS", "value": ">100 µM"}
{"compound": "O=C(O)C(=O)/C=C(\\O)c1cc(Cc2ccccc2)cn(Cc2ccc(F)cc2)c1=O", "cell line": "MAGI", "value": "1 µM"}
{"compound": "COCc1nc(Nc2ccc(C#N)cc2)nc(Nc2c(C)cc(/C=C/C#N)cc2C)c1C(=O)N1CCN(C)CC1", "strain": "K103N+Y101C", "cell line": "MT4 CMV-EGFP", "value": "2.82 µM"}
{"compound": "O=C1Nc2ccc(F)cc2C(C#Cc2ccoc2)(C(F)(F)F)O1", "value": "<0.00252 µM"}